In article PMC5881533:
Construct, isoform or probe ends are uncertain for at least one entry. At least one verdict rests on a figure or table, not on a statement of the authors.

Test system: MucR (Brucella abortus)
Experiment: EMSA
Conditions: 25 mM HEPES pH 7.9, 50 mM KCl, 6.25 mM MgCl2, 5% glycerol, recombinant protein

Sequence | binding result | binding result (label: FAM)
CGGACAACAAAAAATTAAAAAAGGAAAACT (double strand) [Site 3] | binds | –
ATTGACTAAATAATAAGCTA (double strand) [Seq3] | – | binds
